Measured values from paper PMC9855884, “Glycosylated Lipopeptides—Synthesis and Evaluation of Antimicrobial Activity and Cytotoxicity” (Biomolecules, 2023).
Where a SMILES comes first, the peptide text is derived from it. The star is where a group is joined. βGlcNAc = CC(=O)N[C@@H]1[C@@H](O)[C@H](O)[C@@H](CO)O[C@H]1*; Stearoyl = CCCCCCCCCCCCCCCCCC(=O)*; Myristoyl = CCCCCCCCCCCCCC(=O)*

System: human red blood cells (RBCs)
Experiment: Hemolysis assay
Type: cell-based
Method: The hemolysis assay was conducted using a procedure described previously. For this purpose, fresh human red blood cells (RBCs) with EDTA anticoagulant were washed three times with phosphate-buffer saline (PBS) using centrifugation at 800× g for 10 min and resuspended in PBS. Then, the stock solution of RBCs was added to serial dilution of peptides on 96-well polystyrene plates to reach a final volume of 100 µL with 4% concentration of erythrocytes (v/v) over the concentration range of 1–512 µg/mL of the tested compounds. The control wells for the 0% and 100% hemolysis consisted of RBCs suspended in PBS and 1% of Triton X–100, respectively. Subsequently, the plates were incubated for 60 min at 37 °C and then centrifuged at 800× g for 10 min at 4 °C (Sorvall ST 16R Centrifuge, Thermo Scientific, Osterode am Harz, Germany). After centrifugation, the supernatant was carefully […] to new microtiter plates and the release of hemoglobin was monitored through absorbance measurements at 540 nm (Multiskan™ GO Microplate Spectrophotometer, Thermo Scientific). All experiments were conducted in triplicate.
The lipopeptides were tested against human erythrocytes in order to evaluate their hemolytic activity. Moreover, selectivity indexes (SI) were calculated by dividing the HC50 by MIC. […] In some cases, glycosylation led to suppressed toxicity, e.g., a comparison of C14 peptides analogs: 1–3 and 10–12. On the other hand, an increase in toxicity of C18 analogs (7–9 vs. 16–18) was found for glycosylated USCLs. For this reason, SI was calculated to provide a correlation between antimicrobial activity and toxicity. […] Among gUSCLs: 10 and 11 with C14 fatty acid and 16–18 should be highlighted owing to their high selectivity against E. fecium and C. glabrata.

SMILES	Selectivity Index (SI), HC50/MIC (A. baumannii)	Selectivity Index (SI), HC50/MIC (C. glabrata)	Selectivity Index (SI), HC50/MIC (E. faecium)	Selectivity Index (SI), HC50/MIC (K. aerogenes)	Selectivity Index (SI), HC50/MIC (K. pneumoniae)	Selectivity Index (SI), HC50/MIC (P. aeruginosa)	Selectivity Index (SI), HC50/MIC (S. aureus)
CCCCCCCCCCCCCC(=O)N[C@@H](CCCNC(=N)N)C(=O)N[C@@H](CO)C(=O)N[C@@H](CCCNC(=N)N)C(N)=O [Peptide 2, C14-RSR-NH2] (Myristoyl-Arg-Ser-Arg-NH2)	2.92	5.83	23.33	0.36	0.36	2.92	23.33
CCCCCCCCCCCCCCCCCC(=O)N[C@@H](CO[C@@H]1O[C@H](CO)[C@@H](O)[C@H](O)[C@H]1NC(C)=O)C(=O)N[C@@H](CCCNC(=N)N)C(=O)N[C@@H](CCCNC(=N)N)C(N)=O [Peptide 16, C18-S(GlcNAc)RR-NH2] (Stearoyl-Ser(βGlcNAc)-Arg-Arg-NH2)	4.84	19.36	4.84	2.42	1.21	2.42	4.84
CCCCCCCCCCCCCC(=O)N[C@@H](CO[C@@H]1O[C@H](CO)[C@@H](O)[C@H](O)[C@H]1NC(C)=O)C(=O)N[C@@H](CCCNC(=N)N)C(=O)N[C@@H](CCCNC(=N)N)C(N)=O [Peptide 10, C14-S(GlcNAc)RR-NH2] (Myristoyl-Ser(βGlcNAc)-Arg-Arg-NH2)	–	>2.00	>16.00	–	–	>2.00	>8.00
